Pooled drug test results. Numbers come from NIAID ChemDB, via PubChem.

Shared fields: growth or infection tests; agent: Mycobacterium avium; measure: MIC50

Lines come from different laboratories, so protocols vary.

CC1COc2c(N3CCN(C)CC3)c(F)cc3c(=O)c(C(=O)O)cn1c23 ; strain or isolate: 18 strains ; value: 12.5 µg/mL
N/C(=N\NC(CC(=O)c1ccccc1)c1cccnc1)c1ccccn1 ; strain or isolate: 17 strains ; value: 160 µg/mL
CC1COc2c(N3CCN(C)CC3)c(F)cc3c(=O)c(C(=O)O)cn1c23 ; strain or isolate: 18 strains ; value: 12.5 µg/mL
Cc1c(F)c(N2CCNC(C)C2)cc2c1c(=O)c(C(=O)O)cn2C1CC1 ; strain or isolate: 18 strains ; value: 6.25 µg/mL
N/C(=N\NC(CC(=O)c1cccc(Br)c1)c1ccccn1)c1ccccn1 ; strain or isolate: 17 strains ; value: 32 µg/mL
O[C@@H](c1cc(C(F)(F)F)nc2c(C(F)(F)F)cccc12)[C@@H]1CCCCN1 ; strain or isolate: MAC 101 ; method: broth dilution / radiometric ; value: 32 µg/mL
Cc1cccc(C(=O)CC(N/N=C(\N)c2ccccn2)c2ccncc2)c1 ; strain or isolate: 17 strains ; value: 32 µg/mL
CC(C)N1CCN(c2cc3c(cc2F)c(=O)c(C(=O)O)cn3C2CC2)CC1 ; value: 1 µg/mL
N/C(=N\NC(CC(=O)c1cccc(Cl)c1)c1ccccn1)c1ccccn1 ; strain or isolate: 17 strains ; value: 32 µg/mL
O=C(O)c1cn(C2CC2)c2c(Cl)c(N3C[C@@H]4CCCN[C@@H]4C3)c(F)cc2c1=O ; strain or isolate: 51 strains ; value: 0.25 µg/mL
N/C(=N\NC(CC(=O)c1ccc(-c2ccccc2)cc1)c1ccccn1)c1ccccn1 ; strain or isolate: 17 strains ; value: 64 µg/mL
O[C@@H](c1cc(C(F)(F)F)nc2c(C(F)(F)F)cccc12)C1CCCCN1 ; strain or isolate: MAC 101 ; method: broth dilution / radiometric ; value: 32 µg/mL
CN1CCN(c2c(F)cc3c(=O)c(C(=O)O)cn(CCF)c3c2F)CC1 ; strain or isolate: ATCC 15769 ; value: 25 µg/mL
CCS/C(N)=N\N=C\c1ccc(C(F)(F)F)cc1 ; strain or isolate: Clinical isolates ; value: 3.12 µg/mL
NCC[C@H](O)C(=O)N[C@@H]1C[C@H](N)[C@@H](O[C@H]2O[C@H](CN)[C@@H](O)[C@H](O)[C@H]2O)[C@H](O)[C@H]1O[C@H]1O[C@H](CO)[C@@H](O)[C@H](N)[C@H]1O ; strain or isolate: 100 strains ; value: 2.65 µg/mL
N/C(=N\NC(CC(=O)c1cccc(Cl)c1)c1ccncc1)c1ccccn1 ; strain or isolate: 17 strains ; value: 16 µg/mL
O[C@H](c1cc(C(F)(F)F)nc2c(C(F)(F)F)cccc12)C1CCCCN1 ; strain or isolate: MAC 101 ; method: broth dilution / radiometric ; value: 32 µg/mL
CCc1cn2c(nc1=O)O[C@@H]1[C@H](F)[C@H]2O[C@@H]1CO ; strain or isolate: ATCC 25291 ; method: resazurin ; value: 100 µg/mL

Again, the opening 3 rows:

compound | strain or isolate | method | value
CC1COc2c(N3CCN(C)CC3)c(F)cc3c(=O)c(C(=O)O)cn1c23 | 18 strains | - | 12.5 µg/mL
N/C(=N\NC(CC(=O)c1ccccc1)c1cccnc1)c1ccccn1 | 17 strains | - | 160 µg/mL
CC1COc2c(N3CCN(C)CC3)c(F)cc3c(=O)c(C(=O)O)cn1c23 | 18 strains | - | 12.5 µg/mL

Blank or dashed fields: not listed here. MIC50, MIC90 and the like: level of inhibition, or share of isolates inhibited.